{
  "source": "paper PMC9271885",
  "about": "(eBioMedicine, 2022)",
  "tested_on": "SARS-CoV-2",
  "format": "cell-based",
  "details": "3 and 4 dpi, NTZ concentrations above its EC50 (5, 10, 20µM)",
  "data": [
    {"smiles": "CC(=O)Oc1ccccc1C(=O)Nc1ncc([N+](=O)[O-])s1", "note": "[NTZ, Nitazoxanide]", "values": [
      {"measurement": "infectious titers vs untreated", "value": "significant reduction of infectious titers"}
    ]}
  ]
}
